# Laboratory results as given in PubChem BioAssay AID488862 (Broad Institute, 2010).
# Only a part is listed here, and it is no random draw. Activity calls are given as the source filed them. Cut-off read from the data, not from the text of the source: active = inhibition above about 52%; inactive = the rest.
# Experiment: inhibition of PrP 5' UTR reporter expression (AID 488862); note: 0 = median of the neutral control wells
# Conditions: cell-based PrP 5' UTR mRNA reporter, plate reader; active compounds read high; concentration not given here
row,SMILES,inhibition
1,O=P(Nc1ccccn1)(c1cccc2ccccc12)c1cccc2ccccc12,active: 78.6%
2,CN(C(=O)Cc1ccc(Cl)c(Cl)c1)[C@H]1CCCC[C@@H]1N1CCCC1,active: 85.3%
